The source of these data is patent US20120329717A1, “Omega conotoxin peptides” (published 2012).

In this assay the target is recombinant N-type (Cav2.2) VGCC α1B-b/α2δ1/β3 expressed in Xenopus oocytes (rat; rabbit) (UniProt Q02294). The experiment in a line: cell-based or functional assay.

Consider ω-conotoxin CVIF (peptide), for which the fraction of current recovered from block (100 nM) at -65 mV HP came out at 20.3% and the fraction of current recovered from block (100 nM) at -125 mV HP was found to be 99%.
